{"source": "PubChem BioAssay AID504761, Drosophila RNAi Screening Center – 2011", "aim": "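Insect host genes that dengue virus relies on to spread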 (primary screen)", "system": "D.Mel-2 cells from Drosophila", "reagents": "long dsRNA against Drosophila genes", "challenge": "infection with dengue virus type 2; dose and infection time not stated", "detection": "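Cells stained for dengue envelope protein and imaged; percent of infected cells per well on duplicate plates, ranked by infection, with stained nuclei counted for cell number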", "direction": "infection score: higher = more virus-infected cells; cell count: higher = more cells in the well", "hit rule": "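Very low infection ranking in both replicate wells (chance probability at most 0.065), then a retest showing infection dropped 1.5-fold or more at p below 0.05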", "meaning of the calls": "active = confirmed: knock-down lowers infection; inactive = not picked or not confirmed", "note": "The deposit covers about 22,000 reagents; below is an unselected part of those that have a named target and a result. Over the whole deposit, 116 (0.52%) are marked active. 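Calls depend on retest data that are not deposited; infection was ranked per plate without normalising between plates; the unit of the infection score is not given.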 Raw values vary from plate to plate and are shown uncorrected. Reagent sequences are not shown. Not stated in the record: the amount of reagent, the time to read-out."}
{"target":"Ag5r","dsRNA":"DRSC19327","infection score, replicate 1":4.05,"infection score, replicate 2":2.23,"cell count, replicate 1":6019,"cell count, replicate 2":6022,"Outcome":"inactive"}
{"target":"Ag5r","dsRNA":"DRSC29999","infection score, replicate 1":8.48,"infection score, replicate 2":8.25,"cell count, replicate 1":6047,"cell count, replicate 2":6433,"Outcome":"inactive"}
{"target":"Send2","dsRNA":"DRSC01906","infection score, replicate 2":24,"cell count, replicate 1":628,"cell count, replicate 2":6042,"Outcome":"inactive"}
{"target":"Mon1","dsRNA":"DRSC00336","infection score, replicate 1":14.6,"infection score, replicate 2":9.24,"cell count, replicate 1":6628,"cell count, replicate 2":6767,"Outcome":"inactive"}
{"target":"Mon1","dsRNA":"DRSC26726","infection score, replicate 1":5.32,"infection score, replicate 2":3.68,"cell count, replicate 1":6806,"cell count, replicate 2":6188,"Outcome":"inactive"}
{"target":"CG11537","dsRNA":"DRSC08200","infection score, replicate 1":7.72,"infection score, replicate 2":8.37,"cell count, replicate 1":6827,"cell count, replicate 2":6473,"Outcome":"inactive"}
{"target":"Vajk3","dsRNA":"DRSC01883","infection score, replicate 1":16.1,"infection score, replicate 2":16.6,"cell count, replicate 1":5847,"cell count, replicate 2":5922,"Outcome":"inactive"}
{"target":"Vajk3","dsRNA":"DRSC25405","infection score, replicate 1":0.86,"infection score, replicate 2":5.66,"cell count, replicate 1":5841,"cell count, replicate 2":6079,"Outcome":"inactive"}
{"target":"Dysb","dsRNA":"DRSC10730","infection score, replicate 1":12.1,"infection score, replicate 2":7.81,"cell count, replicate 1":6686,"cell count, replicate 2":6301,"Outcome":"inactive"}
{"target":"Cyp12c1","dsRNA":"DRSC11125","infection score, replicate 1":7.28,"infection score, replicate 2":7.78,"cell count, replicate 1":6694,"cell count, replicate 2":6337,"Outcome":"inactive"}
{"target":"Cyp12c1","dsRNA":"DRSC24262","infection score, replicate 1":3.29,"infection score, replicate 2":2.14,"cell count, replicate 1":5865,"cell count, replicate 2":6130,"Outcome":"inactive"}
{"target":"CG10680","dsRNA":"DRSC02093","infection score, replicate 1":11.2,"infection score, replicate 2":2.07,"cell count, replicate 1":5809,"cell count, replicate 2":6467,"Outcome":"inactive"}
{"target":"CG17258","dsRNA":"DRSC00495","infection score, replicate 1":2.59,"infection score, replicate 2":1.7,"cell count, replicate 1":6225,"cell count, replicate 2":6833,"Outcome":"inactive"}
{"target":"CG17258","dsRNA":"DRSC22709","infection score, replicate 1":3.07,"infection score, replicate 2":8.22,"cell count, replicate 1":7243,"cell count, replicate 2":3502,"Outcome":"inactive"}
{"target":"CG17258","dsRNA":"DRSC28524","infection score, replicate 1":7.67,"infection score, replicate 2":19.2,"cell count, replicate 1":3037,"cell count, replicate 2":6072,"Outcome":"inactive"}
{"target":"Frl","dsRNA":"DRSC09300","infection score, replicate 1":2.37,"infection score, replicate 2":2.77,"cell count, replicate 1":5272,"cell count, replicate 2":5484,"Outcome":"inactive"}
{"target":"Frl","dsRNA":"DRSC10027","infection score, replicate 1":2.96,"infection score, replicate 2":1.73,"cell count, replicate 1":5371,"cell count, replicate 2":5598,"Outcome":"inactive"}
{"target":"Frl","dsRNA":"DRSC10716","infection score, replicate 1":6.49,"infection score, replicate 2":6.81,"cell count, replicate 1":4482,"cell count, replicate 2":4947,"Outcome":"inactive"}
{"target":"Frl","dsRNA":"DRSC28783","infection score, replicate 1":11.4,"infection score, replicate 2":7.41,"cell count, replicate 1":4992,"cell count, replicate 2":4588,"Outcome":"inactive"}
{"target":"dbf","dsRNA":"DRSC02570","infection score, replicate 1":11.7,"infection score, replicate 2":8.85,"cell count, replicate 1":2942,"cell count, replicate 2":5842,"Outcome":"inactive"}
{"target":"dbf","dsRNA":"DRSC27207","infection score, replicate 1":25.2,"infection score, replicate 2":12.6,"cell count, replicate 1":4631,"cell count, replicate 2":5747,"Outcome":"inactive"}
{"target":"CG13023","dsRNA":"DRSC09903","infection score, replicate 1":1.99,"infection score, replicate 2":3.67,"cell count, replicate 1":6317,"cell count, replicate 2":6396,"Outcome":"inactive"}
{"target":"soti","dsRNA":"DRSC16432","infection score, replicate 1":9.97,"infection score, replicate 2":18,"cell count, replicate 1":6371,"cell count, replicate 2":6583,"Outcome":"inactive"}
{"target":"soti","dsRNA":"DRSC28682","infection score, replicate 1":13.8,"infection score, replicate 2":3.77,"cell count, replicate 1":3538,"cell count, replicate 2":795,"Outcome":"inactive"}
{"target":"Aldh","dsRNA":"DRSC02717","infection score, replicate 1":1.62,"infection score, replicate 2":6.38,"cell count, replicate 1":5916,"cell count, replicate 2":2664,"Outcome":"inactive"}
{"target":"CG31624","dsRNA":"DRSC02617","infection score, replicate 1":33.9,"infection score, replicate 2":15.6,"cell count, replicate 1":6056,"cell count, replicate 2":5966,"Outcome":"inactive"}
{"target":"Coq2","dsRNA":"DRSC16516","infection score, replicate 1":9.05,"infection score, replicate 2":15.7,"cell count, replicate 1":6174,"cell count, replicate 2":6070,"Outcome":"inactive"}
{"target":"Coq2","dsRNA":"DRSC21366","infection score, replicate 1":4.37,"infection score, replicate 2":14.3,"cell count, replicate 1":5669,"cell count, replicate 2":5380,"Outcome":"inactive"}
{"target":"Coq2","dsRNA":"DRSC29659","infection score, replicate 1":16.9,"cell count, replicate 1":3424,"cell count, replicate 2":373,"Outcome":"inactive"}
